Pooled drug test results. Numbers come from NIAID ChemDB, via PubChem.

All rows: enzyme or target tests; species: HIV-1; target: Integrase; read-out: inhibition

Inhibition is in % at the dose shown (toxicity tests: loss of growth or viability).

structure,method,dose,result
C#CCNC/C(=C\c1ccccc1Oc1ccccc1)C(=O)OC,-,10 µM,31%
COc1cccc2cc(CNC3CCCCC3)c(=O)[nH]c12,strand transfer / absorbance,20 µM,36.1%
COC(=O)c1cc(O)c(O)c(O)c1,3′ processing,250 µM,51.4%
C#CCNC/C(=C\c1cccc(OCC)c1OCc1ccccc1)C(=O)OC,-,10 µM,51.3%
O=C(/C=C(\O)C(=O)O)NCc1cccc(Cl)c1Cl,strand transfer,70 µM,80%
COC(=O)C(CCNC(=O)/C=C/c1cc(O)c(O)c(O)c1)NC(=O)/C=C/c1cc(O)c(O)c(O)c1,3′ processing,10 µM,100%
C[C@H](NC(=O)/C=C(\O)C(=O)O)c1ccccc1,strand transfer,70 µM,25%
COc1cccc2cc(CN(C(=O)c3ccccc3)C3CCCC3)c(=O)[nH]c12,strand transfer / absorbance,20 µM,-11.8%
COC(=O)C(CCCNC(=O)/C=C/c1ccc(O)c(O)c1)NC(=O)/C=C/c1ccc(O)c(O)c1,3′ processing,10 µM,99%
O=C(c1ccccc1)N(Cc1cc2ccccc2[nH]c1=O)C1CCCCC1,strand transfer / absorbance,20 µM,32.8%
O=S(=O)(Nc1cc(Cl)c2ccc(/C=C/c3ccc(Br)cc3)nc2c1O)c1ccccc1,strand transfer,0.05 µM,74.7%
COC(=O)C(CCCCNC(=O)/C=C/c1ccc(O)c(O)c1)NC(=O)/C=C/c1ccc(O)c(O)c1,3′ processing,10 µM,55%
COc1ccc(/C=C/c2ccc3c(Cl)cc(NS(=O)(=O)c4ccc(C)cc4)c(O)c3n2)cc1,strand transfer,0.05 µM,54.6%
COc1cccc2cc(CN(C(=O)c3ccccc3)C3CC3)c(=O)[nH]c12,strand transfer / absorbance,20 µM,-17%
COc1ccc(CNC(=O)/C=C(\O)C(=O)O)cc1,strand transfer,70 µM,70%
Cc1ccc(S(=O)(=O)Nc2cc(Cl)c3ccc(/C=C/c4ccc(O)cc4)nc3c2O)cc1,strand transfer,0.05 µM,100.6%
CCCCOC(=O)C(CNCc1cn([C@H]2C[C@H](n3cc(C)c(=O)[nH]c3=O)O[C@@H]2CO)nn1)C(O)c1cc(Br)ccc1O,-,10 µM,57.8%
O=C(NCCCC[C@H](NC(=O)c1ccc(O)c(O)c1)C(=O)O)c1ccc(O)c(O)c1,3′ processing,10 µM,0%
COc1ccc(S(=O)(=O)Nc2cc(Cl)c3ccc(/C=C/c4ccc(Br)cc4)nc3c2O)cc1,strand transfer,0.05 µM,53.6%
O=c1[nH]c2ccccc2cc1CNC1CCCC1,strand transfer / absorbance,20 µM,45.5%
COC(=O)/C(=C/c1cc(Cl)ccc1OCc1ccccc1)CNCc1cn([C@H]2C[C@H](n3cc(C)c(=O)[nH]c3=O)O[C@@H]2CO)nn1,-,10 µM,9%
COc1ccc(/C=C/c2ccc3c(Cl)cc(NS(=O)(=O)c4ccccc4)c(O)c3n2)cc1,strand transfer,0.05 µM,60.3%
O=C(/C=C(\O)C(=O)O)NCc1ccc([N+](=O)[O-])cc1,strand transfer,70 µM,80%
C#CCNC/C(=C\c1cc(Br)ccc1OCc1ccccc1)C(=O)OC,-,10 µM,72.9%
O=c1[nH]c2ccccc2cc1CNC1CC1,strand transfer / absorbance,20 µM,38.6%
COC(=O)C(CCNC(=O)c1ccc(O)c(O)c1)NC(=O)c1ccc(O)c(O)c1,3′ processing,10 µM,0%
O=S(=O)(Nc1cc(Cl)c2ccc(/C=C/c3ccccc3)nc2c1O)c1ccccc1,strand transfer,0.05 µM,95.9%

The first 2 rows once more:

structure | method | dose | result
C#CCNC/C(=C\c1ccccc1Oc1ccccc1)C(=O)OC | - | 10 µM | 31%
COc1cccc2cc(CNC3CCCCC3)c(=O)[nH]c12 | strand transfer / absorbance | 20 µM | 36.1%

Blank or dashed fields: not listed here. Lines come from different laboratories, so protocols vary.